{
  "source": "patent US12535491B2",
  "about": "“Vaccine comprising protein-targeted (PT) extracellular DNA isolated from bacterial matrix” (priority 2018, dated 2026)",
  "tested_on": "Human Herpes Virus 8",
  "assay": "Immunostaining of Kaposi's sarcoma tissue sections with antibodies to gp160 or its PrDs region",
  "conditions": "primary antibody dilution 1:1000",
  "data": [
    {"substance": "gp160", "values": [
      {"measurement": "Immunostaining, HHV-8 negative", "value": 20, "unit": "%"},
      {"measurement": "Immunostaining, HHV-8 positive", "value": 80, "unit": "%"}
    ]}
  ]
}
